Taken from: PubChem BioAssay AID624099 (ICCB-Longwood, 2012)
In all, the deposit lists about 21,000 reagents; this is a random part of them. 497 of them (2.4%) count as active. 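Higher z means weaker E2 silencing; only reporter increases were scored, and knock-downs that hurt cell survival may mask genuine repressor factors.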 Entries without a mark were called inactive. The numbers tell different reagents against one gene apart.

Purpose: 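Human genes that papillomavirus E2 requires to repress the HPV18 LCR promoter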 (primary screen)
System: human C33A cervical carcinoma cells (HPV-negative) stably expressing BPV1 E2 and an HPV18 LCR luciferase reporter
Reagents: siRNA pool against human genes, 40 nM
Time to read-out: 72 h
Detection: 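Per-well luciferase luminescence, z-scored on each plate against the plate mean and SD with control wells left out, then averaged across three replicate plates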
Scale: mean z-score and z-score: higher = stronger reporter signal, weaker E2 silencing
Hit rule: 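Mean z ≥ 2 together with z ≥ 2 in two or more of the three replicates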

Target gene | reagent | mean z-score | z-score, replicate A | z-score, replicate B | z-score, replicate C
SLC39A11 | 1 | -0.32 | -0.06 | -0.74 | -0.17
TBC1D15 | 1 | 0.29 | 0.38 | 0.4 | 0.07
PLEKHH1 | 1 | -0.7 | -0.8 | -0.87 | -0.43
HAS1 | 1 | 0.54 | 0.43 | 0.4 | 0.8
GOLM2 | 1 | -1.53 | -1.8 | -1.27 | -1.53
LOC387880 (retired record) | 1 | 0.68 | 0.91 | 0.36 | 0.78
LNPEP | 1 | 0.81 | 0.69 | 0.88 | 0.85
LNPEP | 2 | 0.22 | 0.18 | 0.37 | 0.11
BCRP2 | 1 | 0.39 | 0.23 | 0.12 | 0.82
NPTX2 | 1 | -0.93 | -0.76 | -0.97 | -1.06
NDUFA6 | 1 | -0.48 | -0.34 | -0.34 | -0.75
MAGEA8 | 1 | 0.04 | -0.07 | 0.05 | 0.16
NXPE1 | 1 | 1.17 | 1.5 | 0.73 | 1.28
PCDHA13 | 1 | -0.28 | -0.13 | -0.37 | -0.33
ATIC | 1 | 0.74 | 0.62 | 0.81 | 0.79
TSHR | 1 | -0.4 | -0.96 | -0.03 | -0.22
SERPINB4 | 1 | -0.45 | -0.56 | -0.57 | -0.21
TBR1 | 1 | -0.75 | -0.64 | -0.99 | -0.61
COMMD3 | 1 | -1.27 | -1.45 | -1.28 | -1.09
TUBGCP5 | 1 | 1.09 | 1.16 | 1.29 | 0.82
ASMTL | 1 | -0.41 | -0.63 | -0.45 | -0.17
SULT1B1 | 1 | 0.87 | 0.83 | 0.97 | 0.8
LAMA5 | 1 | -1.04 | -0.8 | -1.07 | -1.24
ARHGEF17 | 1 | -0.77 | -1.12 | -0.38 | -0.8
NQO2 | 1 | 0.72 | 0.69 | 0.77 | 0.69
LOC400602 (retired record) | 1 | 0.63 | 0.9 | 0.5 | 0.5
IFITM3P2 | 1 | -0.34 | -0.55 | 0.01 | -0.49
MMEL1 | 1 | -0.36 | -0.38 | -0.49 | -0.22
RPL19 | 1 | -1.72 | -1.82 | -1.63 | -1.72
CFC1 | 1 | -0.25 | -0.32 | -0.12 | -0.32
LOC284379 | 1 | 1.6 | 1.76 | 1.79 | 1.25
ADRA1D | 1 | 0.17 | 0.15 | 0.24 | 0.13
A4GALT | 1 | 0.88 | 1.16 | 0.48 | 0.99
HSPB9 | 1 | 0.09 | 0.14 | -0.06 | 0.2
RMDN2 | 1 | -0.19 | 0.02 | -0.6 | 0.02
PRKAA1 | 1 | -0.3 | -0.61 | -0.12 | -0.18
H2BC9 | 1 | -1.44 | -1.32 | -1.81 | -1.19
TDP2 | 1 | -1.07 | -0.79 | -1.12 | -1.3
JAG1 | 1 | 0.49 | 0.2 | 0.51 | 0.75
ANKMY2 | 1 | -0.17 | -0.08 | -0.04 | -0.37
LOC389958 (retired record) | 1 | 2.91 (active) | 2.89 | 3.31 | 2.52
MNDA | 1 | -0.34 | -0.22 | -0.23 | -0.58
SCN1A | 1 | 0.6 | 0.78 | 0.56 | 0.46
PCDHGC5 | 1 | -0.71 | -0.66 | -0.69 | -0.78
PRDM7 | 1 | 0.61 | 0.15 | 0.31 | 1.38
CTIF | 1 | -0.21 | 0.01 | -0.06 | -0.56
GULP1 | 1 | -0.42 | -0.52 | -0.55 | -0.21
TJP3 | 1 | 0.45 | 0.97 | 0.38 | 0
DDA1 | 1 | 1.19 | 1.5 | 0.9 | 1.18
IL3RA | 1 | 0.19 | 0.3 | 0.07 | 0.19
CHP2 | 1 | -0.51 | -1.01 | -0.47 | -0.06
MRPL13 | 1 | -0.63 | -0.78 | -0.46 | -0.64
RFC1 | 1 | -0.35 | -0.23 | -0.46 | -0.36
OR2C1 | 1 | -0.79 | -0.78 | -0.71 | -0.88
TPI1 | 1 | 0.19 | -0.14 | 0.71 | 0
IMPA1 | 1 | 0 | -0.02 | -0.06 | 0.08
PIGU | 1 | -1.32 | -1.34 | -1.43 | -1.19
HK2 | 1 | 2.07 | 2.46 | 1.88 | 1.88
CARS2 | 1 | -0.86 | -1.09 | -1.13 | -0.35
C5orf24 | 1 | -1.5 | -1.58 | -1.36 | -1.56
CCL1 | 1 | -0.04 | -0.07 | 0.22 | -0.26
ITGA8 | 1 | 0.07 | 0.16 | 0.1 | -0.04
DOK4 | 1 | 1.15 | 0.97 | 1.37 | 1.11
LOC400992 (retired record) | 1 | -0.11 | -0.44 | 0 | 0.12
VN1R1 | 1 | 1.15 | 1.34 | 1.17 | 0.95
HTR1D | 1 | 0.18 | 0.28 | 0.09 | 0.16
NAGS | 1 | 0.03 | -0.16 | 0.13 | 0.12
TOPORS | 1 | 0.18 | 0.35 | -0.01 | 0.19
LOC401212 (retired record) | 1 | -0.6 | -0.57 | -0.8 | -0.44
CYP2J2 | 1 | -0.19 | -0.19 | -0.12 | -0.25
LOC162835 (retired record) | 1 | 1.01 | 1.01 | 1.31 | 0.69
LOC399768 (retired record) | 1 | -0.16 | -0.45 | -0.05 | 0.01
SLC35F6 | 1 | 1.04 | 1.19 | 1.28 | 0.65
